Pooled drug test results. Numbers come from NIAID ChemDB, via PubChem.

Common to all: toxicity to cultured cells; cells: H9; read-out: CC50

CCn is the concentration with n% toxicity to the cells. Lines come from different laboratories, so protocols vary.

CCOC(=O)c1cc(C(=O)c2ccccc2)n2cccc(C(=O)NCc3ccccn3)c12 ; read by: MTT ; result: 154.2 µM
COc1cc2c(c3oc(=O)c(COC(C)=O)c(C)c13)[C@@H](OC(=O)C13CCC(C)(C(=O)O1)C3(C)C)[C@@H](OC(=O)C13CCC(C)(C(=O)O1)C3(C)C)C(C)(C)O2 ; read by: XTT ; result: >33.88 µM
CC(C)[C@@H](NC(=O)C[C@@H]1O[C@@H]1[C@H](Cc1ccccc1)NC(=O)[C@H](CS(C)(=O)=O)NC(=O)c1ccc2ccccc2n1)c1ccccc1 ; result: >100 µM
CC(C)[C@@H]1CC[C@]2(C(=O)OCc3ccccc3)CC[C@]3(C)[C@H](CC[C@@H]4[C@@]5(C)CC[C@H](OC(=O)CC(C)(C)C(=O)O)C(C)(C)[C@@H]5CC[C@]43C)[C@@H]12 ; result: 13 µM
CC(=O)N[C@H](C(=O)N[C@@H](Cc1ccccc1)[C@H]1O[C@H]1CC(=O)NC(C(C)C)C(C)C)C(C)(C)S(C)(=O)=O ; result: >100 µM
C[C@H](CCC(=O)N[C@@H](Cc1cc(I)c(O)cc1I)C(=O)O)[C@H]1CC[C@H]2[C@@H]3[C@H](O)CC4C[C@H](O)CC[C@]4(C)[C@H]3CC[C@]12C ; result: >500 µg/mL
Cc1c(C[N+](=O)[O-])c(=O)oc2c3c(ccc12)OC(C)(C)[C@H](OC(=O)C12CCC(C)(C(=O)O1)C2(C)C)[C@@H]3OC(=O)C12CCC(C)(C(=O)O1)C2(C)C ; read by: XTT ; result: >21.58 µM
CCOC(=O)c1cc(C(=O)c2ccc(C(F)(F)F)cc2)n2ccc(C(=O)NCc3ccccn3)cc12 ; read by: MTT ; result: 349.9 µM
CC(C)[C@H](Cc1ccccc1)NC(=O)C[C@@H]1O[C@@H]1[C@H](Cc1ccccc1)NC(=O)[C@@H](NC(=O)OCc1cccnc1)C(C)(C)S(C)(=O)=O ; result: >100 µM
OCc1cc(OCc2ccccc2)c(OCc2ccccc2)c(OCc2ccccc2)c1-c1c(CO)cc(OCc2ccccc2)c(OCc2ccccc2)c1OCc1ccccc1 ; result: >120 µM
CC(C)[C@@H]1CC[C@]2(C(=O)O)CC[C@]3(C)[C@H](CC[C@@H]4[C@@]5(C)CC[C@H](OC(=O)C(C)(C)CC(=O)O)C(C)(C)[C@@H]5CC[C@]43C)[C@@H]12 ; result: 7.7 µM
CCOC(=O)c1cc(C(=O)c2ccccc2)n2ccc(C(=O)NCc3ccc4ccccc4c3)cc12 ; read by: MTT ; result: 250.5 µM
COc1cc2c(cc1Cc1cccc(Cl)c1F)c(=O)c(C(=O)O)cn2[C@H](CO)C(C)C ; read by: luminescence ; result: 4.818 µM
c1cc(-c2nc3ccccc3[nH]2)nc(-c2nc3ccccc3[nH]2)c1 ; read by: cell count ; result: 21 µg/mL
Cc1c(CC#N)c(=O)oc2c3c(ccc12)OC(C)(C)[C@H](OC(=O)C12CCC(C)(C(=O)O1)C2(C)C)[C@@H]3OC(=O)C12CCC(C)(C(=O)O1)C2(C)C ; read by: XTT ; result: >37.04 µM
CC(C)C(NC(=O)C[C@@H]1O[C@@H]1[C@H](Cc1ccccc1)NC(=O)[C@@H](NC(=O)OCc1ccccc1)C(C)(C)S(C)(=O)=O)C(C)C ; result: >100 µM
O=Cc1cc(OCc2ccccc2)c(OCc2ccccc2)c(OCc2ccccc2)c1-c1c(C=O)cc(OCc2ccccc2)c(OCc2ccccc2)c1OCc1ccccc1 ; result: 70 µM
CC(C)C(NC(=O)C[C@@H]1O[C@@H]1[C@H](Cc1ccccc1)NC(=O)[C@@H](NC(=O)COc1cccc2cnccc12)C(C)(C)S(C)(=O)=O)C(C)C ; result: >100 µM
C=C(C)[C@@H]1CC[C@]2(C(=O)NCCCCCCCC(=O)N[C@@H](CC(C)C)[C@@H](O)CC(=O)O)CC[C@]3(C)[C@H](CC[C@@H]4[C@@]5(C)CC[C@H](O)C(C)(C)[C@@H]5CC[C@]43C)[C@@H]12 ; result: 2.7 µM
COc1cc2c(c3oc(=O)ccc13)[C@@H](OC(=O)C13CCC(C)(C(=O)O1)C3(C)C)[C@@H](OC(=O)C13CCC(C)(C(=O)O1)C3(C)C)C(C)(C)O2 ; result: >153 µM
CCOC(=O)c1cc(C(=O)c2ccccc2)n2ccc(C(=O)N[C@@H](C(=O)OC)c3ccccc3)cc12 ; read by: MTT ; result: 229 µM
CC(C)[C@@H](NC(=O)C[C@@H]1O[C@@H]1[C@H](Cc1ccccc1)NC(=O)[C@@H](NC(=O)CN1CCCC1)C(C)(C)S(C)(=O)=O)c1ccccc1 ; result: >100 µM
COc1cc2ccc3c(c2oc1=O)[C@@H](OC(=O)C12CCC(C)(C(=O)O1)C2(C)C)[C@@H](OC(=O)C12CCC(C)(C(=O)O1)C2(C)C)C(C)(C)O3 ; result: >153 µM
COc1c(OCc2ccccc2)c(OCc2ccccc2)cc(CBr)c1-c1c(CBr)cc(OCc2ccccc2)c(OCc2ccccc2)c1OC ; result: 30 µM
COc1cc2c(c3oc(=O)c(CC#N)c(C)c13)[C@@H](OC(=O)C13CCC(C)(C(=O)O1)C3(C)C)[C@@H](OC(=O)C13CCC(C)(C(=O)O1)C3(C)C)C(C)(C)O2 ; read by: XTT ; result: >35.46 µM
COc1c(OCc2ccccc2)c(OCc2ccccc2)cc(CO)c1-c1c(CO)cc(OCc2ccccc2)c(OCc2ccccc2)c1OC ; result: >140 µM
CC(CCC(=O)N[C@@H](Cc1ccc(O)cc1)C(=O)O)C1CCC2C3CCC4C[C@H](O)CCC4(C)C3C[C@H](O)C12C ; result: >500 µg/mL
CCOC(=O)c1cc(C(=O)c2ccco2)n2ccc(C(=O)NCc3ccccn3)cc12 ; read by: MTT ; result: 89.7 µM
CC(C)CCC[C@@H](C)[C@H]1CCC2C3CCC4C[C@@H](OCc5cn([C@@H]6O[C@H](COS(=O)(=O)[O-])[C@@H](O[C@H]7O[C@H](COS(=O)(=O)[O-])[C@@H](O[C@H]8O[C@H](COS(=O)(=O)[O-])[C@@H](OS(=O)(=O)[O-])[C@H](OS(=O)(=O)[O-])[C@H]8OS(=O)(=O)[O-])[C@H](OS(=O)(=O)[O-])[C@H]7OS(=O)(=O)[O-])[C@H](OS(=O)(=O)[O-])[C@H]6OS(=O)(=O)[O-])nn5)CC[C@]4(C)C3CC[C@@]21C ; result: 190 µg/mL
CCOC(=O)c1cc(C(=O)c2ccccc2)n2ccc(C(=O)N[C@H](C)c3ccccc3)cc12 ; read by: MTT ; result: 216 µM
C=C(C)[C@@H]1CC[C@]2(C(=O)O)CC[C@]3(C)[C@H](CC[C@@H]4[C@@]5(C)CC[C@H](OC(=O)CCCC(=O)O)C(C)(C)[C@@H]5CC[C@]43C)[C@@H]12 ; result: 12.8 µM
CC(=O)N[C@H](C(=O)N[C@@H](Cc1ccccc1)[C@H]1O[C@H]1CC(=O)N[C@@H](c1ccccc1)C(C)C)C(C)(C)S(C)(=O)=O ; result: >100 µM